Test results as given in PMC8442604 (Frontiers in Immunology, 2021).

Biological target: SARS-CoV-2 RBD protein (321–591) (SARS-CoV-2, Wuhan-Hu-1 (MN908947), UniProt P0DTC2)
Experiment: cell-based or functional assay

B1: CV30 (antibody, V domains shown)
VH: QVQLVESGGGLIQPGGSLRLSCAASGVIVSSNYMSWVRQAPGKGLEWVSVIYSGGSTYYADSVKGRFTISRDNSKNTLYLQMNSLRAEDTAVYYCARDLDVSGGMDVWGQGTTVTVSS
VL: not shown
IC50 of neutralisation of authentic SARS-CoV-2 on Vero E6 cells (CPE assay): 0.293 µg/mL
